Measured values from several laboratories, pooled; numbers as filed in NIAID ChemDB.

Shared fields: whole-cell or culture tests; species: Mycobacterium tuberculosis

Blank or dashed fields: not listed here. ECn is the concentration giving n% inhibition of infection, replication or growth. a–b is a range or a potency band. Inhibition is in % at the dose shown (toxicity tests: loss of growth or viability). MIC bound comes from a single tested concentration. A number after MIC or MFC names an inhibition level or a share of isolates. Neighbouring rows are from separate reports.

structure	dose	cell line	strain or isolate	measure	method	conditions	changes	value
C#CC#CC(=O)c1ccccc1C(=O)O	-	-	H37Ra	MIC	-	-	-	45 µg/mL
CCOC(=O)C1=C(C)NC(C)=C(C(=O)OCC)C1c1cn(-c2ccccc2)nc1-c1ccccc1	6.25 µg/mL	VERO	H37Rv	inhibition	resazurin	-	-	95%
COc1ccc(/C=C/C(=O)c2ccncc2)cc1OC	-	-	H37Rv	EC90	resazurin	-	-	≥50 µg/mL
Cc1c(N2C[C@@H]3CCCN[C@@H]3C2)c(F)cn2c(=O)c(C(=O)O)cc(C3CC3)c12	-	-	ATCC 25618	MIC	-	-	-	0.031 µg/mL
Cc1cc(=O)c2c(o1)-c1c(cc(O)c(O)c1C(=O)O)OC2	-	-	H37Rv	MIC bound	BACTEC	-	-	>12.8 µg/mL
CCCCOc1ccc(OCCC)c(NCc2cnc3nc(N)nc(N)c3c2C)c1	-	-	H37Ra	MIC	-	-	-	>64 µg/mL
CCOC(=O)C1=C(C)NC(C)=C(C(=O)OCC)C1c1cn(-c2ccccc2)nc1-c1ccc([N+](=O)[O-])cc1	6.25 µg/mL	VERO	H37Rv	inhibition	resazurin	-	-	93%
CN1CCC(CN2c3ccccc3Sc3ccccc32)C1	-	-	K1	MIC	-	-	-	10 µg/mL
N#Cc1ccccc1NC(=O)C(=O)C(C(=O)c1ccncc1)C1OC(=O)c2ccccc21	6.25 µg/mL	-	H37Rv	inhibition	resazurin	-	-	-2%
Fc1ccc(C=Nc2ccc(-c3nnc(SCc4ccc(Cl)cc4Cl)n3-c3ccccc3)cc2)cc1	6.25 µg/mL	-	H37Rv	inhibition	-	-	-	<50%
CC[C@H]1OC(=O)[C@H](C)[C@@H](O[C@H]2C[C@@](C)(OC)[C@@H](O)[C@H](C)O2)[C@H](C)[C@@H](O[C@@H]2O[C@H](C)C[C@H](N(C)C)[C@H]2O)[C@](C)(OC)C[C@@H](C)C(=O)[C@H](C)[C@@H](O)[C@]1(C)O	-	-	11 isolates (MDR)	MIC90	-	-	-	>16 µg/mL
CN1C(NNC(=O)c2ccncc2)=NS(=O)(=O)c2ccccc21	-	-	H37Rv (ATCC 27294)	MIC	-	-	-	>16 µg/mL
CCCCOc1ccc(OC)cc1NCc1cnc2nc(N)nc(N)c2c1C	-	-	H37Ra	MIC	-	-	-	32 µg/mL
CCOC(=O)C1=C(C)NC(C)=C(C(=O)OCC)C1c1cn(-c2ccccc2)nc1-c1ccc(C)cc1	6.25 µg/mL	-	H37Rv	inhibition	resazurin	-	-	84%
Cc1cc(=O)oc2cc(OCc3ccc(Br)cc3)ccc12	1 µM	-	H37Rv	inhibition	fluorescence	-	-	10.02%
N#Cc1ccc(-c2ccc(OCC(=O)O)cc2CN2CCN(c3ccccn3)CC2)cn1	-	-	H37Rv (ATCC 27294)	MIC	broth dilution	-	-	32 µg/mL
O=C(NNC(=O)c1cccc([N+](=O)[O-])c1)c1cccc([N+](=O)[O-])c1	6.25 µg/mL	-	H37Rv	inhibition	resazurin	-	-	2%
CCOC(=O)C1=C(C)NC(C)=C(C(=O)OCC)C1c1cn(-c2ccccc2)nc1-c1ccc(Br)cc1	-	VERO	H37Rv	MIC	resazurin	-	-	0.02 µg/mL
CO[C@H]1/C=C/O[C@@]2(C)Oc3c(C)c(O)c4c(O)c(c(/C=N/N5CCN(C)CC5)c(O)c4c3C2=O)NC(=O)/C(C)=C\C=C\[C@H](C)[C@H](O)[C@@H](C)[C@@H](O)[C@@H](C)[C@H](OC(C)=O)[C@@H]1C	-	-	11 isolates (MDR)	MIC50	-	-	-	>32 µg/mL
C=C1C(=O)O[C@H]2/C=C(/C)[C@H](OC(C)=O)C[C@@H](O)/C(C)=C\[C@H](OC(=O)[C@@]3(C)O[C@H]3C)[C@H]12	12.8 µg/mL	-	H37Rv	inhibition	BACTEC	-	-	24%
CCOc1cc(Cc2cnc(N)nc2N)cc(OCC)c1-n1cccc1	-	-	8 strains (isoniazid- rifampin-resistant)	MIC	-	-	-	≥256 µg/mL
COC(=O)C(Cc1ccccc1)NC(=O)C1N2C(=O)C(N)C2SC1(C)C	20 µg/mL	-	Gordon	inhibition	colony count	21 d	-	62%
CCN1C(NNC(=O)c2ccncc2)=NS(=O)(=O)c2ccccc21	-	-	Clinical isolates drug-resistant	MIC	-	-	-	>16 µg/mL
COC(=O)c1c(C(=O)OC)c2c(Br)cc3ccccc3n2c1C(=O)c1ccc(C#N)cc1	-	-	-	MIC	resazurin	-	MDR	8 µg/mL
CN(C)c1ccc(/C=N/Nc2nnc(N/N=C/c3ccc(N(C)C)cc3Cl)c3ccccc23)c(Cl)c1	12.5 µg/mL	-	H37Rv	inhibition	BACTEC	-	-	87%
CC(C)(C)OC(=O)COc1ccc(-c2ccc(Cl)cc2)c(CN2CCN(c3ccccn3)CC2)c1	-	-	H37Rv (ATCC 27294)	MIC	broth dilution	-	-	16 µg/mL
CCCOc1ccc(OC)c(NCc2cnc3nc(N)nc(N)c3c2C)c1	-	-	H37Ra	MIC	-	-	-	8 µg/mL
CS(=O)(=O)OCCN(CCOS(C)(=O)=O)c1ccc(C=Nc2cc(Cl)c(O)c(Cl)c2)c(Cl)c1.Cl	12.5 µg/mL	-	H37Rv	inhibition	BACTEC	-	-	0%
CCC1Cn2cc([N+](=O)[O-])nc2O1	-	-	H37Rv	MIC	-	-	-	0.06 µg/mL
Cc1c(Cl)c(=O)oc2cc(OCc3ccc(Br)cc3)ccc12	1 µM	-	H37Rv	inhibition	fluorescence	-	-	2.18%
N[C@@H]1CN(c2c(F)cc3c(=O)c(C(=O)O)cn([C@@H]4C[C@@H]4F)c3c2Cl)CC12CC2	-	-	Clinical strain	MIC	resazurin	-	Gyrase Asp94Ala/Ala90Val	0.5–1 µg/mL
O=c1ccc2ccc(OCCN3CCC(Cc4ccccc4)CC3)cc2o1	100 µM	-	H37Rv	inhibition	fluorescence	-	-	84.57%
CSc1nnc2c(=O)n(C)c(=O)n(C)c2n1	12.5 µg/mL	-	H37Rv	inhibition	BACTEC	-	-	0%
COC(=O)C1=C(C)NC(C)=C(C(=O)OC)C1c1cn(-c2ccccc2)nc1-c1ccc(F)cc1	6.25 µg/mL	-	H37Rv	inhibition	resazurin	-	-	71%
CCCCCc1cc(OC)c2ccccc2n1	-	-	MT2	MIC	-	-	-	12.5 µg/mL
CC1(C)CC(N=c2cc3n(-c4ccc(Cl)cc4Cl)c4ccccc4nc-3cc2Nc2ccc(Cl)cc2Cl)CC(C)(C)N1	-	-	H37Ra	EC50	BACTEC	-	-	<0.6 µg/mL
N#Cc1cccc(-c2ccc(OCC(=O)O)cc2CN2CCN(c3ccccn3)CC2)c1	-	-	H37Rv (ATCC 27294)	MIC	broth dilution	-	-	32 µg/mL
C=CCn1c(SCc2ccccc2)nnc1-c1ccc(N)cc1	-	-	H37Rv	EC50	-	-	-	>6.25 µg/mL
COc1ccc2c(c1)OC(C)(C)C(c1ccccc1)=C2c1ccc2c(c1)NCCO2	-	-	H37Rv	MIC bound	BACTEC	-	-	>12.5 µg/mL
Cn1c(SCc2ccc(Cl)cc2Cl)nnc1-c1ccc(N)cc1	-	-	H37Rv	EC50	-	-	-	>6.25 µg/mL
O=C(Nc1ccc(C2=NCC(O)CN2)cc1)c1ccc(C(=O)Nc2ccc(C3=NCC(O)CN3)cc2)cc1	-	-	H37Rv	MIC	BACTEC	-	-	0.39 µg/mL
COc1cc(/C=C/C(=O)c2ccncc2)cc(OC)c1OC	-	-	H37Rv	EC90	resazurin	-	-	≥50 µg/mL
CCOCCOc1ccc(OCCOCC)c(NCc2cnc3nc(N)nc(N)c3c2C)c1	-	-	H37Ra	MIC	-	-	-	32 µg/mL
Cc1ccc2c(c1)C1(C)C=C(CN3CCN(C)CC3)C(=O)CC1O2	-	-	H37Rv	MIC bound	BACTEC	-	-	>12.5 µg/mL
CC[C@@H](CO)NCCN[C@@H](CC)CO	5 µg/mL	-	13 strains	inhibition	-	-	-	69%
Nc1ccc(-c2nnc(SCc3ccc(Cl)cc3Cl)n2-c2ccccc2)cc1	6.25 µg/mL	-	H37Rv	inhibition	-	-	-	50–59%
CCCCCCCCCCCCCCCCCCSCCCCC(=O)O	-	-	H37Ra	MIC50	-	-	-	0.63–1 µg/mL
O=C(/C=C/c1ccc(Cl)cc1)c1ccncc1	-	-	H37Rv	EC90	resazurin	-	-	≥6.25 µg/mL
O=C(NNC1=NS(=O)(=O)c2ccccc2N1c1ccccc1)c1cccnc1	-	-	Clinical isolates drug-sensitive	MIC	-	-	-	>16 µg/mL
COc1ccc(CCC2CCc3ccccc3N2C)cc1OC	-	-	MT5	MIC	-	-	-	161 µg/mL
CCCCOc1ccc(OCCC)cc1NCc1cnc2nc(N)nc(N)c2c1C	-	-	H37Ra	MIC	-	-	-	>64 µg/mL
CCN1C(NNC(=O)c2cnccn2)=NS(=O)(=O)c2ccccc21	-	-	Clinical isolates drug-sensitive	MIC	-	-	-	8–16 µg/mL
CN(C)c1ccc(O)c2c1C[C@H]1C[C@H]3[C@H](N(C)C)C(=O)C(C(N)=O)=C(O)[C@@]3(O)C(=O)C1=C2O	-	-	97 strains	MIC	-	-	-	>64 µg/mL
CCCCCCCCCCCCCCCCCSCCCCCC(=O)O	-	-	H37Ra	MIC50	-	-	-	0.63–1 µg/mL
COc1ccc2c(/C=C/c3ccc(OCCN4CCCC4)cc3)c(-c3ccccc3)c(=O)oc2c1	-	-	H37Rv	MIC100	-	-	-	>250 µg/mL
Cn1c(=O)sc2cc(C(=S)N3CCN(c4ccccc4)CC3)ccc21	-	-	H37Rv	MIC bound	BACTEC	-	-	>6.25 µg/mL
O=[N+]([O-])c1ccccc1-c1nnc(/N=C\c2ccco2)s1	-	-	H37Rv	MIC	resazurin	-	-	12.5 µg/mL
CN1C(NC(=O)c2cnccn2)=NS(=O)(=O)c2cc(Cl)ccc21	-	-	Clinical isolates drug-sensitive	MIC	-	-	-	>16 µg/mL
Cc1ccc(-n2c(SCc3ccccc3)nnc2-c2ccc(N=Cc3ccc(O)cc3)cc2)cc1	6.25 µg/mL	-	H37Rv	inhibition	-	-	-	<50%
O=c1ccc2ccc(OCc3ccc(Br)cc3)cc2o1	50 µM	-	H37Rv	inhibition	fluorescence	-	-	20.23%
COC(=O)C1=C(C)NC(C)=C(C(=O)OC)C1c1cn(-c2ccccc2)nc1-c1ccccc1	6.25 µg/mL	-	H37Rv	inhibition	resazurin	-	-	12%
O=C(/C=C\C(=O)Nc1cccc(C2=NCCN2)c1)Nc1cccc(C2=NCCN2)c1	6.25 µg/mL	-	H37Rv	inhibition	resazurin	-	-	24%
CO[C@H]1[C@@H](O)[C@H](n2ccc(=O)[nH]c2=O)O[C@@H]1[C@@H](O[C@H]1OC(C(=O)Nc2ccc(F)c(F)c2)=C[C@H](O)[C@@H]1O)C(N)=O	-	-	11 isolates (MDR)	MIC90	-	-	-	32 µg/mL
CN(C)C(=O)Nc1nc2cc(Cl)c(Cl)cc2[nH]1	6.25 µg/mL	-	H37Rv	inhibition	BACTEC	-	-	90%
Cc1onc(-c2ccccc2Cl)c1C(=O)N[C@@H]1C(=O)N2[C@@H]1SC(C)(C)[C@@H]2C(=O)O	10 µg/mL	-	Gordon	inhibition	colony count	21 d	-	100%
NC(C(=O)O)C1C=CCC1	-	-	H37Rv	MIC bound	BACTEC	-	-	>12.5 µg/mL
COC(=O)C1[C@@H](OC(=O)CC(CCCCCCCCCCC(C)C)OC(=O)CC(C)CC(=O)OC2OC(C)C(OC)C(OC)C2OC)CN(C)C([C@@H](OC2O[C@H](CN)[C@@H](O)[C@H]2O)C2OC(n3ccc(=O)[nH]c3=O)[C@H](O)[C@@H]2O)C(=O)N1C	-	-	Kurono	MIC	-	-	-	6.25 µg/mL
Cc1c2c(c(O)c3c(O)cccc13)C(=O)C1(O)C(O)=C(C(=O)NCNc3ccc(C(N)=O)cn3)C(=O)C(N(C)C)C1C2.Cl	-	-	H37Rv	MIC	BACTEC	-	-	≥12.5 µg/mL
COC(=O)C1=C(C)NC(C)=C(C(=O)OC)C1c1cn(-c2ccccc2)nc1-c1ccc(Br)cc1	6.25 µg/mL	-	H37Rv	inhibition	resazurin	-	-	40%
O=C1c2ccccc2C(=O)c2sc(Nc3ccc([N+](=O)[O-])cc3)nc21	12.5 µg/mL	-	H37Rv	inhibition	BACTEC	-	-	100%
CN1C(NNC(=O)c2cccnc2)=NS(=O)(=O)c2ccccc21	-	-	Clinical isolates drug-sensitive	MIC	-	-	-	>16 µg/mL
CN(C)c1ccc(/C=c2\sc3nc(=O)c(-c4ccccc4NC(=O)C(F)(F)F)nn3c2=O)cc1	-	-	H37Rv	MIC bound	BACTEC	-	-	>12.5 µg/mL
Cn1c(SCc2ccc(Cl)cc2Cl)nnc1-c1ccc(N=Cc2ccc(F)cc2)cc1	-	-	H37Rv	EC50	-	-	-	>6.25 µg/mL
CCN=c1cc2oc3cc(NCC)c(C)cc3c(-c3ccccc3C(=O)OCC)c-2cc1C	12.5 µg/mL	-	H37Rv	inhibition	BACTEC	-	-	87%
CCOc1ccc(OC)c(NCc2cnc3nc(N)nc(N)c3c2C)c1	-	-	H37Ra	MIC	-	-	-	16 µg/mL
O=[n+]1c2ccccc2n([O-])c2ccccc21	-	-	TAC-R	MIC	-	-	-	1.6 µg/mL
S=C(Nc1ccc(Cl)cc1)Nc1ccc(-c2n[nH]c(=S)n2-c2ccccc2)cc1	12.5 µg/mL	-	H37Rv	inhibition	-	-	-	1%
CN(C)CNC(=S)S	-	-	INH-r	MIC	-	-	-	3.1 µg/mL
O=c1cc(C(F)(F)F)c2ccc(OCc3ccc(Br)cc3)cc2o1	100 µM	-	H37Rv	inhibition	fluorescence	-	-	43.91%